Results of unrelated studies side by side (data: NIAID ChemDB).

All rows: whole-cell or culture tests; organism: Mycobacterium tuberculosis

ECn: concentration that inhibits the pathogen or its effect by n%.

SMILES	strain	method	mutations	cells	endpoint	dose	setting	result
COc1cc2c3c(c1O)C1(C=CC(=O)C=C1)C[C@@H]3N(C)CC2	H37Rv	BACTEC	-	-	MIC bound	-	-	>12.8 µg/mL
O=c1oc2ccc(Br)cc2cc1-c1cs/c(=N\N=C\c2ccc(F)cc2)n1Cc1ccccc1	H37Rv	-	-	-	MIC	-	-	>6.25 µg/mL
O=C(O)c1cnccn1	H5009	-	-	-	MIC	-	-	480 µg/mL
S=c1oc2c(Cl)cc(Cl)cc2c(=S)n1-c1ccccc1	331/81	-	-	-	MIC	-	-	8 µM
Cc1ccc(NC(=O)CC/C(CC(=O)c2ccc(F)cc2)=N\NC(=O)C(=O)NN)cc1C	H37Rv	BACTEC	-	-	MIC bound	-	-	>12.5 µg/mL
CCS/C(N)=N\N=C\c1cccnc1	ATCC 35822 (isoniazid-resistant)	-	-	-	MIC	-	-	>100 µg/mL
COc1cc(/C=N/N=c2\scc(-c3cc4cc(Br)ccc4oc3=O)n2Cc2ccccc2)ccc1O	H37Rv	-	-	-	inhibition	6.25 µg/mL	-	<11%
Clc1ncnc2c1nc(I)n2Cc1ccccc1	H37Rv	BACTEC	-	-	EC50	-	-	>12.5 µg/mL
CC1CC[C@H]2[C@@H]3CC[C@H](C(C)C)[C@@]3(C(=O)O)CC[C@@]2(C)CC1	H37Rv	resazurin	-	-	MIC	-	-	100 µg/mL
Cc1cc2c(=O)cc(-c3ccccc3)oc2c(C(N)=O)c1C	H37Rv	BACTEC	-	-	inhibition	12.5 µg/mL	-	-6%
CS/C(N)=N\N=C\c1ccnnc1	H37Rv (ATCC 27294)	-	-	-	MIC	-	-	>100 µg/mL
CCN1C(N2CCN(Cc3ccc([N+](=O)[O-])o3)CC2)=NS(=O)(=O)c2ccccc21	H37Rv	broth dilution	-	-	MIC	-	-	4 µg/mL
FC(F)(F)c1cc(NCCCCCCCNc2cc(C(F)(F)F)nc3c(C(F)(F)F)cccc23)c2cccc(C(F)(F)F)c2n1	H37Rv	-	-	-	MIC	-	-	>6.25 µg/mL
Cc1c(N2CCN(C(=O)c3ccco3)CC2)c([N+](=O)[O-])cc2c(=O)c(C(=O)O)cn(C(C)(C)C)c12	H37Rv	-	-	-	MIC	-	-	25.91 µM
O=c1oc2ccccc2cc1-c1cs/c(=N\N=C\c2ccc(Br)cc2)n1Cc1ccccc1	H37Rv	-	-	-	inhibition	6.25 µg/mL	-	<11%
c1ccc(Cn2cnc3c(-c4cccs4)ncnc32)cc1	H37Rv	BACTEC	-	-	EC50	-	-	<12.5 µg/mL
Cc1c(N2CCN(C(=O)c3ccco3)CC2)c([N+](=O)[O-])cc2c(=O)c(C(=O)O)cn(C3CC3)c12	H37Rv	-	-	-	MIC	-	-	0.84 µM
COc1ccc(/C=N/N=c2\scc(-c3cc4cc(Br)ccc4oc3=O)n2Cc2ccccc2)cc1OC	H37Rv	-	-	-	inhibition	6.25 µg/mL	-	<11%
CN[C@@H]1[C@H](O[C@H]2[C@H](O[C@H]3[C@H](O)[C@@H](O)[C@H](N=C(N)N)[C@@H](O)[C@@H]3N=C(N)N)O[C@@H](C)[C@]2(O)C=O)O[C@@H](CO)[C@H](O)[C@H]1O	WH 51/02	-	-	-	MIC	-	-	0.625 µg/mL
O=C(NN1CCCCCC1)c1ccc(C(=O)NN2CCCCCC2)cc1	H37Rv	BACTEC	-	-	inhibition	12.5 µg/mL	-	0%
O=c1oc2ccc(Br)cc2c(=S)n1-c1ccc(C(F)(F)F)cc1	My 331/88	-	-	-	MIC	-	14 d	2 µM
COc1ccccc1/C=N/N=c1\scc(-c2cc3ccccc3oc2=O)n1Cc1ccccc1	H37Rv	-	-	-	MIC	-	-	>6.25 µg/mL
NC[C@H]1O[C@H](O[C@H]2[C@H](O)[C@@H](O[C@H]3O[C@H](CO)[C@@H](O)[C@H](N)[C@H]3O)[C@H](N)C[C@@H]2N)[C@H](O)[C@@H](O)[C@@H]1O	-	-	-	-	MIC	-	-	5 µg/mL
C=Cc1ncc2ncn(Cc3ccccc3)c2n1	H37Rv	BACTEC	-	-	EC50	-	-	>12.5 µg/mL
CC[C@@H](CO)NCCN[C@@H](CC)CO	WH 51/02	-	-	-	MIC	-	-	1.25 µg/mL
CC(C)(C)CC(C)(O)CN(CC(C)(O)CC(C)(C)C)C(=S)S	TAC-R	-	-	-	MIC	-	-	3.1 µg/mL
CCOc1cc(/C=N/N=c2\scc(-c3cc4ccccc4oc3=O)n2Cc2ccccc2)ccc1O	H37Rv	-	-	-	MIC	-	-	>6.25 µg/mL
CCOC(=O)CC(N)[C@H]1O[C@@H]2OC(C)(C)O[C@@H]2[C@H]1OCc1ccccc1	H37Ra	-	-	-	MIC	-	-	>25 µg/mL
Cc1cc(Nc2ccc(N(C)C)cc2)c2cc(N(C)C)ccc2n1	H37Rv	-	-	VERO	MIC	-	-	6.25 µg/mL
O=[N+]([O-])c1cnc(NS(=O)(=O)c2nnc3sc4ccccc4n23)s1	H37Rv	-	-	-	MIC	-	-	2 µg/mL
Cc1ccc(-n2c(=S)[nH]c3ccccc3c2=S)cc1	331/81	-	-	-	MIC	-	-	16 µM
C=C(c1ccccc1)N1N=NC2CCOC21	H37Rv	BACTEC	-	-	inhibition	12.5 µg/mL	-	8%
Fc1cccc(-n2c(=S)oc3ccc(Cl)cc3c2=S)c1	My 331/88	-	-	-	MIC	-	14 d	2 µM
O=[N+]([O-])c1ccc2sc3nnc(SCc4ccccc4F)n3c2c1	H37Rv	-	-	-	MIC	-	-	10 µg/mL
CC(=O)O[C@H]1C[C@@]2(C)[C@@H](C[C@@H](O)[C@H]3[C@@]4(C)CC[C@@H](O)[C@@H](C)[C@@H]4CC[C@@]32C)/C1=C(\CCC=C(C)C)C(=O)O	-	agar diffusion / agar	-	-	EC50	-	-	0.8 µg/mL
CC(C)=CC[C@H](O)C1=CC(=O)c2c(O)ccc(O)c2C1=O	PAS-R	-	-	-	MIC	-	-	6.4 µg/mL
CCCCCCCCCCCCCCCCNC(CC(=O)OCC)[C@H]1O[C@@H]2OC(C)(C)O[C@@H]2[C@H]1OC	H37Rv	-	-	-	MIC	-	-	6.25 µg/mL
C[C@@]12CCC3[C@@](CCC4[C@@]3(C)CCC[C@@]4(C)C(=O)NNC(=O)c3ccncc3)(CC1=NNC(=O)c1ccncc1)C2	H37Rv	-	-	-	MIC	-	-	20 µg/mL
CC(C)CCOc1ccc(NC(=S)Nc2ccc(OCCC(C)C)cc2)cc1	H37Rv	resazurin	-	-	MIC	-	-	2.5 µg/mL
S=C1SCN(Cc2ccco2)CN1Cc1ccco1	H37Rv	BACTEC	-	-	inhibition	12.5 µg/mL	-	3%
CC(C)(C)NCCNc1cc(C(F)(F)F)nc2c(C(F)(F)F)cccc12	H37Rv	-	-	-	MIC	-	-	>6.25 µg/mL
O=C(O)c1cnccn1	H37Ra	-	-	-	inhibition	25 µg/mL	-	20%
Cc1cccc(C(C)(C)C)c1NC(=O)/C(Cc1nc2ccc([N+](=O)[O-])cc2[nH]c1=O)=N/NC(=O)C[N+](C)(C)C.[Cl-]	H37Rv	BACTEC	-	-	inhibition	12.5 µg/mL	-	14%
S=c1oc2c(Cl)cc(Cl)cc2c(=S)n1-c1ccc(Br)cc1	331/81	-	-	-	MIC	-	-	8 µM
COC1C(O)=C2C(=O)OC(C)(O)/C=C/C=C/C=C/C=C\C(c3ccccc3)NC(=O)/C=C/C=C/C=C/C=C/C2(C)C1O	CS-R	-	-	-	MIC	-	-	>12.5 µg/mL
FC(F)(F)c1cc(NCCCNc2cc(C(F)(F)F)nc3c(C(F)(F)F)cccc23)c2cccc(C(F)(F)F)c2n1	H37Rv	-	-	-	MIC	-	-	>6.25 µg/mL
O=c1oc2ccc(F)cc2c(=S)n1-c1ccc(F)cc1	My 331/88	-	-	-	MIC	-	14 d	1 µM
COc1cc(Br)c(CC(=O)c2cn(C(=O)Cc3cc(OC)c(OC)cc3Br)c3ccc(Br)cc23)cc1OC	H37Rv	resazurin	-	-	MIC bound	-	-	>6.25 µg/mL
Cc1c(-c2ccc(C(c3ccccc3)N3CCN(C)CC3)cc2)c([N+](=O)[O-])cc2c(=O)c(C(=O)O)cn(C3CC3)c12	H37Rv	-	-	-	MIC	-	-	0.68 µM
CCOC(=O)C(=O)NCc1c(N)nnn1C	H37Rv	BACTEC	-	-	MIC bound	-	-	>12.5 µg/mL
c1ccc(Cn2cnc3cnc(-c4ccco4)nc32)cc1	H37Rv	BACTEC	-	-	EC50	-	-	>12.5 µg/mL
Cc1cccc(NC(=O)c2ccc3cc(O)ccc3c2)c1	H37Ra ATCC 25177	broth dilution / visual reading	-	-	MIC	-	-	27 µM
FC(F)(F)c1cc(NCCNc2cc(C(F)(F)F)nc3c(C(F)(F)F)cccc23)c2cccc(C(F)(F)F)c2n1	H37Rv	-	-	-	inhibition	6.25 µg/mL	-	46%
COC(=O)c1nn2ccc3ccccc3c2c1C(=O)OC	H37Rv	resazurin	-	-	MIC bound	-	-	>6.25 µg/mL
CCCCCCCCCCCCCCCCN[C@@H](CC(=O)OCC)[C@H]1O[C@@H]2OC(C)(C)O[C@@H]2[C@H]1OC	H37Rv	-	-	-	MIC	-	-	6.25 µg/mL
CCCCCCCCC(OC)C(=O)O	H37Rv	-	-	-	MIC	-	-	200 µM
S=c1oc2c(Cl)cc(Cl)cc2c(=S)n1-c1cccc(Cl)c1	331/81	-	-	-	MIC	-	-	8 µM
CC(C)=CCOc1c2ccoc2cc2oc(=O)ccc12	H37Rv clinical isolate CRY6	resazurin	Isoniazid rifampicin ethambutol-resistant	-	MIC100	-	-	100 µg/mL
Cc1c(N2CCn3cc(C(=O)O)nc3C2)c([N+](=O)[O-])cc2c(=O)c(C(=O)O)cn(C(C)(C)C)c12	H37Rv	-	-	-	MIC	-	-	26.63 µM
CCOc1cc(/C=N/N=c2\scc(-c3cc4cc(Br)ccc4oc3=O)n2Cc2ccccc2)ccc1O	H37Rv	-	-	-	MIC	-	-	>6.25 µg/mL
CC=CCOc1cc(NC(=S)c2ccoc2C)ccc1OC	H37Rv	resazurin	-	-	MIC bound	-	-	>6.25 µg/mL
Clc1nc(I)nc2c1ncn2Cc1ccccc1	H37Rv	BACTEC	-	-	EC50	-	-	<12.5 µg/mL
CC[C@H]1OC(=O)[C@H](C)C(=O)[C@H](C)[C@@H](O[C@@H]2O[C@H](C)C[C@H](N(C)C)[C@H]2O)[C@](C)(OC)C[C@@H](C)C(=O)[C@H](C)[C@H]2N(CCCCc3ccc(N)cc3)C(=O)O[C@]12C	-	-	-	-	MIC	-	-	6 µM
CC1(C)CCC[C@]2(C)[C@H]3C=C4C=C(O)C(=O)C=C4O[C@@]3(C)CC[C@@H]12	TAC-R	-	-	-	MIC	-	-	12.5 µg/mL
Clc1nc(-c2cccs2)nc2c1ncn2Cc1ccccc1	H37Rv	BACTEC	-	-	EC50	-	-	>12.5 µg/mL
CC[C@H]1OC(=O)[C@H](C)C(=O)[C@H](C)[C@@H](O[C@@H]2O[C@H](C)C[C@H](N(C)C)[C@H]2O)[C@](C)(OC)C[C@@H](C)C(=O)[C@H](C)[C@H]2N(CC/C=C/c3ccccc3)C(=O)O[C@]12C	-	-	-	-	MIC	-	-	4 µM
CO[C@H]1/C=C/O[C@@]2(C)Oc3c(C)c(O)c4c(O)c(c(/C=N/N5CCN(C)CC5)c(O)c4c3C2=O)NC(=O)/C(C)=C\C=C\[C@H](C)[C@H](O)[C@@H](C)[C@@H](O)[C@@H](C)[C@H](OC(C)=O)[C@@H]1C	H37Rv	resazurin	-	-	MIC	-	-	0.0075 µg/mL
O=C1Oc2cc3c(c4cccc1c24)OCN(c1ccc(Cl)cc1)C3	H37Rv	BACTEC	-	-	MIC bound	-	-	>12.5 µg/mL
CC[C@H]1OC(=O)[C@H](C)C(=O)[C@H](C)[C@@H](O[C@@H]2O[C@H](C)C[C@H](N(C)C)[C@H]2O)[C@](C)(OC)C[C@@H](C)C(=O)[C@H](C)[C@H]2N(CCCn3cnc4c3c(=O)n(C)c(=O)n4C)C(=O)O[C@]12C	-	-	-	-	MIC	-	-	>128 µM
OCc1cc2c([nH]c3ccccc32)c(C(O)CO)n1	H37Rv	BACTEC	-	-	MIC	-	-	≥12.5 µg/mL
CC[C@H]1OC(=O)[C@H](C)C(=O)[C@H](C)[C@@H](O[C@@H]2O[C@H](C)C[C@H](N(C)C)[C@H]2O)[C@](C)(OC)C[C@@H](C)C(=O)[C@H](C)[C@H]2N(NCCCc3ccnc4ccccc34)C(=O)O[C@]12C	-	-	-	-	MIC	-	-	4 µM
C[C@H]1COc2c(N3CCN(C)CC3)c(F)cc3c(=O)c(C(=O)O)cn1c23	18 strains	-	-	-	MIC90	-	-	1 µg/mL
CC[C@H]1OC(=O)[C@H](C)[C@@H](O[C@H]2C[C@@](C)(OC)[C@@H](O)[C@H](C)O2)[C@H](C)[C@@H](O[C@@H]2O[C@H](C)C[C@H](N(C)C)[C@H]2O)[C@](C)(O)C[C@@H](C)/C(=N\OCOCCOC)[C@H](C)[C@@H](O)[C@]1(C)O	-	-	-	-	MIC	-	-	32 µM
CCOC(=O)CC(NC(C)CCCC(C)C)[C@H]1O[C@@H]2OC(C)(C)O[C@@H]2[C@H]1OC	H37Ra	-	-	-	MIC	-	-	>25 µg/mL
O=c1[nH]c2cc([N+](=O)[O-])ccc2nc1/C=C(/O)c1ccco1	H37Rv	resazurin	-	-	MIC bound	-	-	>6.25 µg/mL
COc1ccc(/C=N/N=c2\scc(-c3cc4ccccc4oc3=O)n2Cc2ccccc2)cc1	H37Rv	-	-	-	MIC	-	-	>6.25 µg/mL
O=c1cc(O)cc(NS(=O)(=O)c2nnc3sc4ccccc4n23)[nH]1	H37Rv	-	-	-	MIC	-	-	100 µg/mL
NC(=S)NN=C1C(O)C(O)C(O)C(O)C1O	H37Rv	BACTEC	-	-	inhibition	12.5 µg/mL	-	3%
O=S(=O)(Nc1ccc(Cl)cn1)c1nnc2sc3ccccc3n12	H37Rv	-	-	-	MIC	-	-	10 µg/mL
S=c1[nH]c2ccccc2c(=S)n1-c1ccc(Cl)cc1	331/81	-	-	-	MIC	-	-	64 µM

A number after MIC or MFC names an inhibition level or a share of isolates. MIC bound: limit read from a one-dose screen. Neighbouring rows are from separate reports. Blank or dashed fields: not listed here. Inhibition is in % at the dose shown (toxicity tests: loss of growth or viability).